Results of unrelated studies side by side (data: NIAID ChemDB).

Shared fields: whole-cell or culture tests; organism: Aspergillus terreus

Neighbouring rows are from separate reports. MIC50, MIC90 and the like: level of inhibition, or share of isolates inhibited. Zones are inhibition diameters on agar. An empty or dashed field is not shown. Two numbers with a dash give a range or band.

structure | endpoint | conditions | dose | strain | read by | value
O=C(NN1C(=O)CSC1C1C(c2ccccc2)=Nc2ccc(Cl)cc21)N1c2ccccc2C=Cc2ccccc21 | zone | - | 750 µg/mL | MTCC-1782 | agar diffusion | 13 mm
CCC(C)n1ncn(-c2ccc(N3CCN(c4ccc(OC[C@H]5CO[C@](Cn6cncn6)(c6ccc(Cl)cc6Cl)O5)cc4)CC3)cc2)c1=O | MIC100 | - | - | MRCM 26158 | broth dilution / visual reading | 0.25 µg/mL
C[C@H]1[C@H](O)[C@@H](C)/C=C/C=C/C=C/C=C/C=C/C=C/C=C/[C@H](O[C@@H]2O[C@H](C)[C@@H](O)[C@H](N)[C@@H]2O)C[C@@H]2O[C@](O)(C[C@@H](O)C[C@@H](O)CC[C@H](O)[C@@H](O)C[C@@H](O)CC(=O)O[C@H]1C)C[C@H](O)[C@H]2C(=O)O | MFC | - | - | Clinical isolate | XTT | 8–16 µg/mL
CC(C)S(=O)(=O)N1CCN(c2cnn(-c3cc(F)cc(F)c3)c(=O)c2OC2CCC(F)C2)CC1 | MIC | - | - | ND125 | broth dilution | 0.5 µg/mL
Cc1ccc2c(c1)C(C1SCC(=O)N1NC(=O)N1c3ccccc3C=Cc3ccccc31)C(c1ccccc1)=N2 | zone | - | 500 µg/mL | MTCC-1782 | agar diffusion | 11 mm
CC(C)C[C@H](N)C(=O)O | MFC100 | - | - | MRCM 26158 | broth dilution | >18000 µg/mL
C[C@H]1[C@H](O)[C@@H](C)/C=C/C=C/C=C/C=C/C=C/C=C/C=C/[C@H](O[C@@H]2O[C@H](C)[C@@H](O)[C@H](N)[C@@H]2O)C[C@@H]2O[C@](O)(C[C@@H](O)C[C@@H](O)CC[C@H](O)[C@@H](O)C[C@@H](O)CC(=O)O[C@H]1C)C[C@H](O)[C@H]2C(=O)O | MIC100 | 24 h | - | ATCC 10690 | broth dilution | 0.5 µg/mL
C[C@@H](c1ncncc1F)[C@](O)(Cn1cncn1)c1ccc(F)cc1F | MIC50 | - | - | - | broth dilution | 0.5 µg/mL
C[C@H]1[C@H](O)[C@@H](C)/C=C/C=C/C=C/C=C/C=C/C=C/C=C/[C@H](O[C@@H]2O[C@H](C)[C@@H](O)[C@H](N)[C@@H]2O)C[C@@H]2O[C@](O)(C[C@@H](O)C[C@@H](O)CC[C@H](O)[C@@H](O)C[C@@H](O)CC(=O)O[C@H]1C)C[C@H](O)[C@H]2C(=O)O | MIC | - | - | - | agar diffusion | 19 µg/mL
CCC(C)CC(C)CCCCCCCCC(=O)N[C@H]1C[C@@H](O)[C@H](NCCN)NC(=O)[C@@H]2[C@@H](O)CCN2C(=O)[C@H]([C@H](O)CCN)NC(=O)[C@H]([C@H](O)[C@@H](O)c2ccc(O)cc2)NC(=O)[C@@H]2C[C@@H](O)CN2C(=O)[C@H]([C@@H](C)O)NC1=O | MIC | - | - | 11 | broth dilution | 128 µg/mL
CCC(C)CC(C)CCCCCCCCC(=O)N[C@H]1C[C@@H](O)[C@H](NCCN)NC(=O)[C@@H]2[C@@H](O)CCN2C(=O)[C@H]([C@H](O)CCN)NC(=O)[C@H]([C@H](O)[C@@H](O)c2ccc(O)cc2)NC(=O)[C@@H]2C[C@@H](O)CN2C(=O)[C@H]([C@@H](C)O)NC1=O | MIC | - | - | ND125 | broth dilution | 0.06 µg/mL
O=c1cc(CO)occ1O | MIC99 | - | - | UAB673 | agar | >12800 µM
O=C(NN=CC1C(c2ccccc2)=Nc2ccccc21)N1c2ccccc2C=Cc2ccccc21 | zone | - | 750 µg/mL | MTCC-1782 | agar diffusion | 6 mm
Nc1ncccc1-c1cc(Cc2ccc(COc3ccccn3)cc2)no1 | MIC50 | - | - | - | broth dilution | 0.13 µg/mL

A second listing of 2 rows from above:

structure	endpoint	conditions	dose	strain	read by	value
CCC(C)n1ncn(-c2ccc(N3CCN(c4ccc(OC[C@H]5CO[C@](Cn6cncn6)(c6ccc(Cl)cc6Cl)O5)cc4)CC3)cc2)c1=O	MIC100	-	-	MRCM 26158	broth dilution / visual reading	0.25 µg/mL
CCC(C)CC(C)CCCCCCCCC(=O)N[C@H]1C[C@@H](O)[C@H](NCCN)NC(=O)[C@@H]2[C@@H](O)CCN2C(=O)[C@H]([C@H](O)CCN)NC(=O)[C@H]([C@H](O)[C@@H](O)c2ccc(O)cc2)NC(=O)[C@@H]2C[C@@H](O)CN2C(=O)[C@H]([C@@H](C)O)NC1=O	MIC	-	-	ND125	broth dilution	0.06 µg/mL